Assay in all cases: pseudovirus neutralization IC50; higher = weaker neutralization
Assay [1] deals with SARS-CoV-2 Omicron BA.1 spike pseudovirus. The method, then:
(§1)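 Single-round VSV luciferase pseudovirus mixed with antibody dilutions for 1 h and put on Huh-7 cells for about a day; IC50 from the dose curve.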

Assay [2] deals with SARS-CoV-2 Omicron BA.2 spike pseudovirus. The method, then:
as §1

The target of assay [3] is SARS-CoV-2 Omicron BA.2.75 spike pseudovirus. The method, then: as §1
Assay [4] has as its target SARS-CoV-2 Omicron BA.2.75.2 spike pseudovirus. The method, then: as §1
In assay [5] the target is SARS-CoV-2 Omicron BA.5 spike pseudovirus. The method, then:
as §1

The target of assay [6] is SARS-CoV-2 Omicron BM.1.1.1 spike pseudovirus. Here is the method:
as §1

Assay [7] concerns the target SARS-CoV-2 Omicron BQ.1.1 spike pseudovirus. The method, then:
as §1

Assay [8] addresses SARS-CoV-2 Omicron BR.2 spike pseudovirus. Here is the method:
as §1

In assay [9] the target is SARS-CoV-2 Omicron CA.1 spike pseudovirus. The method, then:
as §1

The target of assay [10] is SARS-CoV-2 Omicron XBB spike pseudovirus. The method, then:
as §1

Assay [11] addresses SARS-CoV-2 early D614G spike pseudovirus. The method, then:
as §1

Human monoclonal antibodies against the spike receptor-binding domain (heavy:light variable regions). IC50 against pseudoviruses bearing the spike of naturally observed variants; lower = stronger; >10 µg/ml means not reached at the top dose. No active / inactive call. The stated detection limit is 0.0005 µg/ml; values near or below 0.001 µg/ml lie at the floor of the assay.

B1: BD56-290 (protein)
chain 1: QVQLQESGPGLVKPSETLSLTCTVSGDSISSYYWSWIRQPPGKGLEWIGYIYYSGSTNYNPSLKSRVTISVDTSKNQFSLKLSSVTAADTAVYYCARGAGGGDWFDPWGQGTLVTVSS
chain 2: DIVMTQSPDSLAVSLGERATINCKSSQSVLYSSNNKNYLAWYQQKPGQPPKLLIYWASTRESGVPDRFSGSGSGTDFTLTISSLQAEDVAVYYCQQYYRTPLTFGGGTKVEIK
For the molecule B1, the “pseudovirus neutralization IC50” value in assay [1] was 0.143 µg/mL; in assay [2] it was over 10 µg/mL; in assay [3], over 10 µg/mL; in [4], over 10 µg/mL; in assay [5], over 10 µg/mL; in [6], over 10 µg/mL. In addition, the “pseudovirus neutralization IC50” value in assay [7], in assay [8], in assay [9], in assay [10] and in assay [11] was over 10 µg/mL in each case.

B2: BD56-1213 (protein)
chain 1: EVQLVESGGGLVQPGGSLRLSCAASGFTFGDYWMSWVRQAPGKGLEWVANIKQDGSEKYYVDSVRGRFTISRDNAKNSLFLQMNSLRPEDTAVYYCVRVWQWLGVDYWGQGTLVTVSS
chain 2: NFMLTQPHSVSESPGKTVTISCTGSSGSIANNYVQWYHQRPGSAPTTVIFEDNQRPSGVPDRFSGSIDSSSNSASLTISGLKTEDEADYYCQSFDGIFWVFGGGTKLTVL
In the case of B2, the “pseudovirus neutralization IC50” value in assay [1] was over 10 µg/mL; in [2] it was 0.414 µg/mL; in assay [3], over 10 µg/mL; in assay [4], over 10 µg/mL; in [5] it was over 10 µg/mL; in assay [6], over 10 µg/mL. Moreover, the “pseudovirus neutralization IC50” value in [7], in assay [8], in assay [9], in assay [10] and in assay [11] was over 10 µg/mL throughout.

B3: BD56-1185 (protein)
chain 1: EVQLVESGGGLVQPGRSLRLSCAASGFTFDDYDMNWVRQAPGKGLEWVSIISWDSGSIAYADSVKGRFTISRDNAKNSLYLQMNSLRTEDTALYYCAKDSAPLTGTTSLGYWGQGTLVTVSS
chain 2: QPVLTQPPSASASLGASVTLTCTLSSGYNNYKVDWYQQRPGKGPRFVMRVGPGGIVGSKGDGIPDRFSVLGSGLNRYLTIKNIHEEDESDYHCGADHGSGSNFVWVFGGGTKLTVL
On to B3, for which the “pseudovirus neutralization IC50” value in assay [1] was 0.00275 µg/mL; in assay [2], 0.00281 µg/mL; in assay [3], over 10 µg/mL; in assay [4], over 10 µg/mL; in [5], 2.19 µg/mL; in assay [6] it was over 10 µg/mL. The “pseudovirus neutralization IC50” value in assay [7], in assay [8], in [9], in [10] and in [11] was over 10 µg/mL throughout.

B4: BD56-1227 (protein)
chain 1: QVQLVESGGGLVKPGGSLRLSCAASAFTFTNAWMSWVRQAPGKGLEWVGRIKSKIDGGTTDYAAPVKGRFTISRDDSKHMLYLQMNGLKTEDTAVYYCTTDLLNPDYFGSGTHYKPKIMDVWGQGTTVTVSS
chain 2: SYELTQPPSVSVSPGQTASITCSGDKLGDKYTCWYKQRPGQSPVLVIYEDTKRPSGIPERFSGSNSGNTATLTISGTQAIDEADYYCQAWDSSTQVFGGGTKLTVL
With B4, the “pseudovirus neutralization IC50” value is 0.00425 µg/mL in assay [1]; 0.00314 µg/mL in [2]; over 10 µg/mL in assay [3]; over 10 µg/mL in [4]; over 10 µg/mL in [5]; over 10 µg/mL in assay [6]. Besides, the “pseudovirus neutralization IC50” value in [7], in assay [8], in assay [9], in [10] and in assay [11] was over 10 µg/mL in each case.

B5: BD58-0544 (protein)
chain 1: EVQLVESGGGLIQPGGSLRLSCAASGFPVSSNYMTWVRQAPGRGLQWVSLIYSGGSTYYADSVKGRFTISRDNSKNTLYLQMNSLRAEDTAMYYCARDLGPYGMDVWGQGTTVTVSS
chain 2: SYVLTQPPSMSVAPGKPARITCGGDNIGGNSVNWYQQKPGQAPVLVVYDDSDRPSGIPERFSGSNSGNTATLTISRVEVGDEADYYCQVWDSSSDHPEVFGTGTKVTVL
B5: the “pseudovirus neutralization IC50” value in assay [1] is 0.00199 µg/mL; in [2], 0.000697 µg/mL; in [3] it was 3.37 µg/mL; in assay [4] it was over 10 µg/mL; in [5] it was 0.0667 µg/mL; in [6] it was over 10 µg/mL. Moreover, the “pseudovirus neutralization IC50” value in [7], in assay [8], in assay [9], in assay [10] and in assay [11] was over 10 µg/mL each time.

These data come from the supplement of paper PMC9931576.
